Amino acid sequences for entries named in this document (tags omitted).
UniProt P51681, whole entry, looked up: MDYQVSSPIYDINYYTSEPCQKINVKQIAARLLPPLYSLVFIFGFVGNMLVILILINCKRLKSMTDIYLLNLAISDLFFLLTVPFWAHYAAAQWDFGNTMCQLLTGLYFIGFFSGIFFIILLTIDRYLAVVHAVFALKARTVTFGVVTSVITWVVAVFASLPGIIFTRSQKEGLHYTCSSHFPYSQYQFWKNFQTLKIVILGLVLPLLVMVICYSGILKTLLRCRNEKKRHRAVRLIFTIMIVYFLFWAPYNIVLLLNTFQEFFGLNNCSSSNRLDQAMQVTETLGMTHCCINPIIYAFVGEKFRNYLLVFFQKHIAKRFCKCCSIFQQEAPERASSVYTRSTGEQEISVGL

The target in the assay is C-C chemokine receptor type 5 (Homo sapiens, UniProt P51681). Description: Inhibition of CCR5 (unknown origin) expressed in human HeLa cells assessed as inhibition of interaction of CHO cells expressing HIV-1 JRFLenv and HIV-1 Tat and human HeLa cells expressing CD4 after 20 hrs by beta-galactosidase reporter gene assay relative to AGP. It counts as cell-based.
For the compound `O=C(O)c1ccc(Oc2ccc(CN3CCC(N4C(=O)N(C5CCOCC5)C[C@H]4c4cccc(Cl)c4)CC3)cn2)cc1`, the fold change (FC) was 1.1.
In the case of `Cc1nc(Sc2ccc(C(=O)O)cc2)ccc1CN1CCC(N2C(=O)N(C3CCOCC3)C[C@H]2c2ccccc2)CC1` it was 1; in that of `O=C(O)c1ccc(Sc2ccc(CN3CCC(N4C(=O)N(C5CCOCC5)C[C@H]4c4ccccc4)CC3)cn2)cc1`, 0.9; in that of `Cc1nc(Nc2ccc(C(=O)O)cc2)ncc1CN1CCC(N2C(=O)N(C3CCOCC3)C[C@H]2c2cccc(Cl)c2)CC1`, 1.8.
Regarding `O=C(O)c1ccc(Oc2ccc(CN3CCC(N4C(=O)N(C5CCOCC5)C[C@H]4c4ccccc4)CC3)cn2)cc1`, the fold change (FC) came to 0.7.
As to `O=C(O)c1ccc(Oc2ccc(CN3CCC(N4C(=O)N(C5CCOCC5)C[C@H]4c4ccccc4)CC3)cc2)cc1`, the fold change (FC) amounted to 1.

The record behind these values is ChEMBL document CHEMBL2434870, “Design of substituted imidazolidinylpiperidinylbenzoic acids as chemokine receptor 5 antagonists: potent inhibitors of R5 HIV-1 replication” (J Med Chem, 2013).
